Compound potency records, mixed from different reports. Data source: NIAID ChemDB in PubChem.

Common to all: growth or infection tests; species: Staphylococcus aureus; endpoint: MIC

An empty or dashed field is not shown.

structure	strain	value
CC[C@H]1OC(=O)[C@H](C)C(=O)[C@H](C)[C@@H](O[C@@H]2O[C@H](C)C[C@H](N(C)C)[C@H]2O)[C@@]2(C)C[C@@H](C)C(=NC(C)=O)[C@H](C)[C@@H](OC/C(=N\OCc3ccc4nc(N)sc4c3)CO2)[C@]1(C)O	33591 (erythromycin methicillin-resistant)	>64 µg/mL
C=CCNC(=O)OC[C@H]1/C=C(C)/C=C/C(=O)[C@H](C)CC(C=O)[C@H](O[C@@H]2O[C@H](C)[C@@H](O)[C@H](N(C)C)[C@H]2O)[C@@H](C)[C@H](O)CC(=O)O[C@@H]1CC	25923 (erythromycin-susceptible)	0.5 µg/mL
CC[C@H]1OC(=O)[C@H](C)C(=O)[C@H](C)[C@@H](O[C@@H]2O[C@H](C)C[C@H](N(C)C)[C@H]2O)[C@@]2(C)C[C@@H](C)C(=NC(C)=O)[C@H](C)[C@@H](OC/C(=N\OCCc3ccccc3)CO2)[C@]1(C)O	25923 (erythromycin-susceptible)	0.5 µg/mL
O=C(/C=C/c1ccc([N+](=O)[O-])cc1)NC[C@H]1CN(c2ccc(N3CCOCC3)c(F)c2)C(=O)O1	ATCC 29213 (linezolid-resistant)	>32 µg/mL
CC[C@H]1OC(=O)C[C@@H](O)[C@H](C)[C@@H](O[C@@H]2O[C@H](C)[C@@H](O)[C@H](N(C)C)[C@H]2O)C(C=O)C[C@@H](C)C(=O)/C=C/C(C)=C/[C@@H]1COC(=O)Nc1ccc(Cl)cc1	25923 (erythromycin-susceptible)	0.5 µg/mL
CC(=O)NC[C@H]1CN(c2ccc(-c3ccn(CC#N)n3)c(F)c2)C(=O)O1	UC6685 (methicillin-resistant)	2 µg/mL
C[C@H]1COc2c(N3CCN(C)CC3)c(F)cc3c(=O)c(C(=O)O)cn1c23	OC667 (methicillin-resistant)	0.25 µg/mL
O=C(O)c1cn(C2CC2)c2cc(NCCCCCO)c(F)cc2c1=O	ATCC 5278 (methicillin-resistant)	25 µg/mL
Cc1c(N2C[C@H](N)[C@H](C3CC3)C2)c(F)cn2c(=O)c(C(=O)O)cc(C3CC3)c12	NCTC 10649M	0.02 µg/mL
O=C(O)c1cn(C2CC2)c2cc(NCCN3CCCC3)c(F)cc2c1=O	ATCC 5278 (methicillin-resistant)	1.56 µg/mL
CNc1c(F)cc2c(=O)c(C(=O)O)cn(-c3cc(N)c(F)cc3F)c2c1C	W200 (methicillin-resistant)	0.015 µg/mL
COc1c(-c2ccc3c(c2)CNC3)c(F)cc2c(=O)c(C(=O)O)cn(C3CC3)c12	FDA209P	0.0156 µg/mL
COc1ccc(-c2ccc(N3CC(CNC(C)=O)CC3=O)cc2)ccc1=O	UC9218	>64 µg/mL
COc1c(-c2ccc3c(c2)CNC3C)ccc2c(=O)c(C(=O)O)cn(C3CC3)c12	FDA209P	0.0625 µg/mL
CN[C@@H]1CN(c2c(F)cn3c(=O)c(C(=O)O)cc(C4CC4)c3c2C)C[C@@H]1C	NCTC 10649M	0.02 µg/mL
CN(C)c1cc(CNC2CCCCC2)c(O)c2c1C[C@H]1C[C@H]3[C@H](N(C)C)C(=O)C(C(N)=O)=C(O)[C@@]3(O)C(=O)C1=C2O	MRSA5 (methicillin-resistant)	0.5 µg/mL
CC1NCc2cc(-c3ccc4c(=O)c(C(=O)O)cn(C5CC5)c4c3OC(F)F)ccc21	FDA209P	0.0625 µg/mL
CC(CO)Nc1cc2c(cc1F)c(=O)c(C(=O)O)cn2C1CC1	ATCC 5278 (methicillin-resistant)	12.5 µg/mL
O=CNC[C@H]1CN(c2ccc3c(c2)-n2cccc2COC3)C(=O)O1	ATCC 33591 (MRSA)	8 µg/mL
CC(C)(N)CNc1cc2c(cc1F)c(=O)c(C(=O)O)cn2C1CC1	ATCC 5278 (methicillin-resistant)	25 µg/mL
CC(=O)NC[C@H]1CN(c2ccc(-c3ccn(CCC#N)n3)c(F)c2)C(=O)O1	UC9213 (methicillin-susceptible)	4 µg/mL
CC(C)=CCc1c(O)ccc2c1OC1c3ccc(O)c(CC=C(C)C)c3OCC21	-	13.6 µg/mL
COC(=O)N1CC=C(c2ccc(C3=NO[C@H](CNC(=O)O)C3)cc2)CC1	UC9213	>16 µg/mL
C=C1COC2[C@@H](C)/C(=N/OCOC)[C@H](C)C[C@@](C)(OC1)[C@H](O[C@@H]1O[C@H](C)C[C@H](N(C)C)[C@H]1O)[C@@H](C)C(=O)[C@@H](C)C(=O)O[C@H](CC)[C@@]2(C)O	33591 (erythromycin methicillin-resistant)	>64 µg/mL
COC(=O)NC[C@H]1CN(c2ccc3c(c2)-n2cccc2COC3)C(=O)O1	ATCC 33591 (MRSA)	4 µg/mL
CC1NCc2ccc(-c3ccc4c(=O)c(C(=O)O)cn(C5CC5)c4c3OC(F)F)cc21	FDA209P	0.125 µg/mL
C[C@@H]1N[C@@H]2C[C@H]1N(c1nc3c(cc1F)c(=O)c(C(=O)O)cn3C(C)(C)C)C2	A9537	0.03 µg/mL
CSCC(=O)NC[C@H]1CN(c2ccc(N3CCOCC3)c(F)c2)C(=O)O1	ATCC 29213 (linezolid-resistant)	>64 µg/mL
CC[C@H]1OC(=O)C[C@@H](O)[C@H](C)[C@@H](O[C@@H]2O[C@H](C)[C@@H](O)[C@H](N(C)C)[C@H]2O)C(C=O)C[C@@H](C)C(=O)/C=C/C(C)=C/[C@@H]1COCOCc1ccccc1	25923 (erythromycin-susceptible)	0.25 µg/mL
CC[C@H]1OC(=O)[C@H](C)C(=O)[C@H](C)[C@@H](O[C@@H]2O[C@H](C)C[C@H](N(C)C)[C@H]2O)[C@@]2(C)C[C@@H](C)C(=O)[C@H](C)C(OC/C=C/CO2)[C@]1(C)O	33591 (erythromycin methicillin-resistant)	>64 µg/mL
CC(=O)NC[C@H]1CN(c2ccc(-c3ccnn3C)c(F)c2)C(=O)O1	UC9213 (methicillin-susceptible)	1 µg/mL
O=C(O)c1cn(C2CC2)c2c(OC(F)F)c(-c3ccc4c(c3)CNC4)c(F)cc2c1=O	FDA209P	0.0313 µg/mL
CCC(=O)NC[C@H]1CN(c2ccc3c(c2)-n2cccc2COC3)C(=O)O1	ATCC 49951 (SMITH)	4 µg/mL
O=C(O)NC[C@H]1CC(c2cc(F)c(N3CCN(C(=O)CO)CC3)c(F)c2)=NO1	UC9218	1 µg/mL
CN(C)[C@@H]1C(=O)C(C(N)=O)=C(O)[C@@]2(O)C(=O)C3=C(O)c4c(O)ccc(-c5ccc(F)cc5)c4C[C@H]3C[C@@H]12	MRSA5 (methicillin-resistant)	0.25 µg/mL
CCC1CN(c2cc3c(cc2F)c(=O)c(C(=O)O)cn3C2CC2)CCN1	-	0.22 µg/mL
CNC1CN(c2c(F)cn3c(=O)c(C(=O)O)cc(C4CC4)c3c2C)CC1C	NCTC 10649M	0.02 µg/mL
CN(C)[C@@H]1C(=O)C(C(N)=O)=C(O)[C@@]2(O)C(=O)C3=C(O)c4c(O)ccc(-c5ccc6c(c5)OCO6)c4C[C@H]3C[C@@H]12	MRSA5 (methicillin-resistant)	0.5 µg/mL
COc1c(N2CC[C@@H]([C@H](C)NC/C=C/C3=C(C(=O)O)N4C(=O)[C@@H](NC(=O)COc5ccccc5)[C@H]4CC3)C2)c(F)cc2c(=O)c(C(=O)O)cn(C3CC3)c12	-	0.03 µg/mL
CN(C)[C@@H]1C(=O)C(C(N)=O)=C(O)[C@@]2(O)C(=O)C3=C(O)c4c(O)ccc(-c5ccoc5)c4C[C@H]3C[C@@H]12	MRSA5 (methicillin-resistant)	1 µg/mL
CCC(=S)NC[C@H]1CN(c2ccc3c(c2)-n2cccc2COC3)C(=O)O1	ATCC 33591 (MRSA)	4 µg/mL
CC[C@H]1OC(=O)[C@H](C)C(=O)[C@H](C)[C@@H](O[C@@H]2O[C@H](C)C[C@H](N(C)C)[C@H]2O)[C@@]2(C)C[C@@H](C)C(=NC(C)=O)[C@H](C)C(OC/C(=N/OCc3ccccc3)CO2)[C@]1(C)O	25923 (erythromycin-susceptible)	2 µg/mL
CC(C)=CCc1cc(O)cc2c1C1COc3c(ccc(O)c3CC=C(C)C)C1O2	-	12.8 µg/mL
O=C(Cc1cccc(Br)c1)NC[C@H]1CN(c2ccc(N3CCOCC3)c(F)c2)C(=O)O1	ATCC 29213 (linezolid-resistant)	>64 µg/mL
Cc1c(NCCCO)c(F)cc2c(=O)c(C(=O)O)cn(-c3cc(N)c(F)cc3F)c12	W806 (methicillin-resistant)	2 µg/mL
COC(=O)n1ccc(-c2ccc(N3C[C@H](CNC(C)=O)OC3=O)cc2F)n1	UC6685 (methicillin-resistant)	4 µg/mL
CC[C@H]1OC(=O)[C@@](C)(F)C(=O)[C@H](C)[C@@H](O[C@@H]2O[C@H](C)C[C@H](N(C)C)[C@H]2O)[C@@]2(C)C[C@@H](C)C(=NC(C)=O)[C@H](C)[C@@H](OC/C(=N\OCc3ccc(-c4cccc(N)n4)s3)CO2)[C@]1(C)O	33591 (erythromycin-resistant)	4 µg/mL
C[C@H]1NC2CC1N(c1nc3c(cc1F)c(=O)c(C(=O)O)cn3C(C)(C)C)C2	A9537	0.03 µg/mL
O=C(/C=C/c1ccc(/C=N/O)cc1)NC[C@H]1CN(c2ccc(N3CCOCC3)c(F)c2)C(=O)O1	ATCC 29213 (linezolid-resistant)	>64 µg/mL
CC1(C)C=Cc2cc3c(cc2O1)OC1c2ccc(O)cc2OCC31	-	28.4 µg/mL
CN(C)CCCN(C)c1cc2c(cc1F)c(=O)c(C(=O)O)cn2C1CC1	ATCC 5278 (methicillin-resistant)	1.56 µg/mL
CC[C@H]1OC(=O)[C@H](C)C(=O)[C@H](C)[C@@H](O[C@@H]2O[C@H](C)C[C@H](N(C)C)[C@H]2O)[C@@]2(C)C[C@@H](C)C(=NC(C)=O)[C@H](C)[C@@H](OC/C(=N\OCCCc3ccccc3)CO2)[C@]1(C)O	25923 (erythromycin-susceptible)	0.5 µg/mL
COc1ccc(-c2ccc(C3=CC(CNC(C)=O)OC3=O)cc2)ccc1=O	UC9213	2 µg/mL
CC[C@H]1OC(=O)C[C@@H](O)[C@H](C)[C@@H](O[C@@H]2O[C@H](C)[C@@H](O)[C@H](N(C)C)[C@H]2O)C(C=O)C[C@@H](C)C(=O)/C=C/C(C)=C/[C@@H]1CO	25923 (erythromycin-susceptible)	2 µg/mL
O=C(/C=C/c1ccncc1)NC[C@H]1CN(c2ccc(N3CCOCC3)c(F)c2)C(=O)O1	ATCC 29213 (linezolid-resistant)	>64 µg/mL
NCCCCCCNc1cc2c(cc1F)c(=O)c(C(=O)O)cn2C1CC1	ATCC 6538P	>100 µg/mL
Cc1c(N)c(F)cc2c(=O)c(C(=O)O)cn(-c3cc(N)c(F)cc3F)c12	W200 (methicillin-resistant)	0.03 µg/mL

Rows are shuffled and stem from different studies.